# Source: US8420888B2, “Chloroplast transit peptides for efficient targeting of DMO and uses thereof” (Monsanto Technology LLC, priority 2007, dated 2013)
# Test system: DMO protein
# Assay: Western blot analysis of DMO targeted with pea RbcS CTP (related art)
molecule,measurement,value
"RbcS CTP: Pea Rubisco small subunit CTP including the 27 aa coding sequence, SEQ ID NO:1 (protein, listed as Pisum sativum) MASMISSSAVTTVSRASRGQSAAMAPFGGLKSMTGFPVRKVNTDITSITSNGGRVKCMQVWPPIGKKKFETLSYLPPLTRDSRA",correctly processed DMO protein band,~38 kDa
same,larger band (DMO and the 27 aa of RbcS coding region),~41 kDa
